Target: KsBcl-2 (Human herpesvirus 8 type P, UniProt F5HGJ3, V117A)
Format: binding, Kaposi's sarcoma-associated herpesvirus
Settings: for affinity for KsBcl-2, higher than the limit of detection / binding to KsBcl-2 (in words): SPR; for affinity for KsBcl-2, higher than the limit of detection: stated in text as limit of detection; for binding to KsBcl-2 (in words): statement in the discussion; for IC50: read-out: Affinity (nM), KsBcl2 (This Study), measured by SPR, summary table without errors, NB = No Binding

Sequences of proteins named here, by UniProt entry; tags and fusion partners are left off. Residues count along the entry.
UniProt F5HGJ3, 1-146 V117A: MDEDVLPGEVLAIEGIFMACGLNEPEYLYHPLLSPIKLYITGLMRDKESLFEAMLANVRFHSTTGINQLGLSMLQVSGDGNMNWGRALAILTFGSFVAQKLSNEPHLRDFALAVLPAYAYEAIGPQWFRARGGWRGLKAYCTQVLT

Compound: CSCC[C@H](NC(=O)[C@H](CCCNC(=N)N)NC(=O)[C@H](CCCNC(=N)N)NC(=O)[C@H](CC(C)C)NC(=O)[C@H](CCC(=O)O)NC(=O)[C@H](CCCNC(=N)N)NC(=O)CNC(=O)[C@H](Cc1ccc(O)cc1)NC(=O)[C@H](CCCNC(=N)N)NC(=O)[C@H](CCC(N)=O)NC(=O)[C@H](C)NC(=O)[C@H](C)NC(=O)[C@H](Cc1c[nH]c2ccccc12)NC(=O)[C@H](CC(C)C)NC(=O)[C@@H](N)CC(N)=O)C(=O)N[C@@H](CO)C(=O)N[C@@H](CC(=O)O)C(=O)N[C@@H](CCC(=O)O)C(=O)N[C@@H](Cc1ccccc1)C(=O)N[C@H](C(=O)N[C@@H](CC(=O)O)C(=O)N[C@@H](CO)C(=O)N[C@@H](Cc1ccccc1)C(=O)N[C@@H](CCCCN)C(=O)N[C@@H](CCCCN)C(=O)NCC(=O)O)C(C)C [Bad]
- affinity for KsBcl-2, higher than the limit of detection: > 2 mM
- binding to KsBcl-2 (in words): did not detect any affinity
- IC50: > 2000 nM

Compound: CC[C@H](C)[C@H](NC(=O)[C@H](CS)NC(=O)[C@H](CCC(N)=O)NC(=O)[C@H](CC(C)C)NC(=O)[C@H](CCCCN)NC(=O)[C@H](CCCNC(=N)N)NC(=O)[C@H](C)NC(=O)[C@@H](NC(=O)[C@H](CCC(N)=O)NC(=O)[C@@H](NC(=O)[C@H](CCC(=O)O)NC(=O)[C@H](C)NC(=O)[C@H](CCC(N)=O)NC(=O)[C@H](Cc1c[nH]cn1)NC(=O)[C@@H](N)CCC(N)=O)C(C)C)[C@@H](C)CC)C(=O)N[C@@H](C)C(=O)N[C@@H](CC(=O)O)C(=O)N[C@@H](CCC(N)=O)C(=O)N[C@@H](Cc1ccccc1)C(=O)N[C@@H](Cc1c[nH]cn1)C(=O)N[C@@H](CCCNC(=N)N)C(=O)N[C@@H](CC(C)C)C(=O)N[C@@H](Cc1c[nH]cn1)C(=O)N[C@H](C(=O)N[C@@H](CCC(N)=O)C(=O)N[C@@H](CCC(N)=O)C(=O)O)C(C)C [Bmf]
- affinity for KsBcl-2, higher than the limit of detection: > 2 mM
- binding to KsBcl-2 (in words): did not detect any affinity
- IC50: > 2000 nM

Source: PMC9027176 (Viruses, 2022)
